A mixed list of measured activities; the numbers were collected in NIAID ChemDB.

Shared fields: target-level tests; agent: Hepatitis C virus; target: NS3/NS4A protease

Conditions beyond the fields shown may differ between rows.

{"SMILES": "Cc1ccc(NC(=O)c2c(O)cc(O)c([N+](=O)[O-])c2O)cc1", "dose": "100 µg/mL", "endpoint": "inhibition", "read by": "HPLC", "value": "84.8%"}
{"SMILES": "C=C[C@@H]1C[C@]1(NC(=O)[C@@H]1C[C@@H](Oc2cc(-c3ccccc3)nc3cc(OC)ccc23)CN1C(=O)[C@@H](NC(=O)OCC1CC1)C(C)(C)C)C(=O)NS(=O)(=O)C1CC1", "strain": "BMS", "endpoint": "IC50", "value": "<0.05 µM"}
{"SMILES": "Cc1cccc(NC(=O)c2c(O)cc(O)c([N+](=O)[O-])c2O)c1", "dose": "100 µg/mL", "endpoint": "inhibition", "read by": "HPLC", "value": "90.4%"}
{"SMILES": "C=CC1CC1(NC(=O)[C@@H]1C[C@@H](OC(=O)Nc2cc(C(F)(F)F)ccc2-n2cccn2)CN1C(=O)[C@@H](NC(=O)OC(C)(C)C)C(C)(C)C)C(=O)NS(=O)(=O)C1CC1", "strain": "BMS/H77C/J416S", "endpoint": "IC50", "value": "<0.1 µM"}
{"SMILES": "C=CC1C[C@@]1(NC(=O)[C@@H]1C[C@@H](Oc2cc(-c3csc(NC(C)C)n3)nc3cc(OC)ccc23)CN1C(=O)[C@@H](NC(=O)OC(C)(C)C)C(C)(C)C)C(=O)NS(=O)(=O)C1(CC2CC2)CC1", "strain": "BMS", "endpoint": "IC50", "value": "<0.05 µM"}
{"SMILES": "C=C[C@@H]1C[C@]1(NC(=O)[C@@H]1C[C@@H](Oc2cc(-c3ccccc3)nc3cc(OC)ccc23)CN1C(=O)[C@@H](NC(=O)c1ccco1)C(C)(C)C)C(=O)NS(=O)(=O)C1CC1", "strain": "BMS", "endpoint": "IC50", "value": "<0.05 µM"}
{"SMILES": "COc1ccc2c(O[C@@H]3C[C@@H](C(=O)N[C@@]4(C(=O)NS(=O)(=O)C5(Cc6ccccc6)CC5)CC4C4CC4)N(C(=O)[C@@H](NC(=O)OC(C)(C)C)C(C)(C)C)C3)cc(-c3ccccc3)nc2c1", "strain": "BMS", "endpoint": "IC50", "value": "0.05–0.5 µM"}
{"SMILES": "C=CC1CC1(NC(=O)[C@@H]1C[C@@H](OC(=O)Nc2ccc(OC)cc2)CN1C(=O)[C@@H](NC(=O)OC(C)(C)C)C(C)(C)C)C(=O)NS(=O)(=O)C1CC1", "strain": "BMS/H77C/J416S", "endpoint": "IC50", "value": "0.1–1 µM"}
{"SMILES": "C=CC1C[C@@]1(NC(=O)[C@@H]1C[C@@H](Oc2cc(-c3ccccc3)nc3cc(OC)ccc23)CN1C(=O)[C@@H](NC(=O)OCCF)C(C)(C)C)C(=O)NS(=O)(=O)C1(Cc2ccccc2)CC1", "strain": "BMS", "endpoint": "IC50", "value": "<0.05 µM"}
{"SMILES": "COc1ccc(NC(=O)c2c(O)cc(O)c([N+](=O)[O-])c2O)cc1OC", "dose": "100 µg/mL", "endpoint": "inhibition", "read by": "HPLC", "value": "64.9%"}
{"SMILES": "C=C[C@H]1C[C@@]1(NC(=O)[C@@H]1C[C@@H](Oc2ccnc3cc(Cl)ccc23)CN1C(=O)[C@@H](NC(=O)OC1CCCC1)C(C)(C)C)C(=O)NS(=O)(=O)C1(CC#CCC)CC1", "strain": "BMS", "endpoint": "IC50", "value": "<0.05 µM"}
{"SMILES": "C=C1C[C@]1(NC(=O)[C@@H]1C[C@@H](Oc2cc(-c3ccccc3)nc3cc(OC)ccc23)CN1C(=O)[C@@H](NC(=O)OC(C)(C)C)C(C)(C)C)C(=O)NS(=O)(=O)c1ccccc1F", "strain": "BMS", "endpoint": "IC50", "value": "<0.05 µM"}
{"SMILES": "C=C[C@H]1C[C@@]1(NC(=O)[C@@H]1C[C@@H](Oc2cc(-c3ccccc3)nc3cc(OC)ccc23)CN1C(=O)[C@@H](NC(=O)OC(C)(C)C)C(C)(C)C)C(=O)NS(=O)(=O)C1(Cl)CC1", "strain": "BMS", "endpoint": "IC50", "value": "<0.05 µM"}
{"SMILES": "C=C[C@@H]1C[C@]1(NC(=O)[C@@H]1C[C@@H](Oc2cc(-c3ccccc3)nc3cc(OC)ccc23)CN1C(=O)[C@@H](NC(=O)OC(C)(C)C)C(C)(C)C)C(=O)NS(=O)(=O)c1ccc(Cl)cc1", "strain": "BMS", "endpoint": "IC50", "value": "<0.05 µM"}
{"SMILES": "C=CC1CC1(NC(=O)[C@@H]1C[C@@H](OC(=O)Nc2cc(C)ccc2-c2nccs2)CN1C(=O)[C@@H](NC(=O)OC(C)(C)C)C(C)(C)C)C(=O)NS(=O)(=O)C1CC1", "strain": "BMS/H77C/J416S", "endpoint": "IC50", "value": "<0.1 µM"}
{"SMILES": "O=C(NCCc1ccccc1)c1c(O)cc(O)c([N+](=O)[O-])c1O", "dose": "100 µg/mL", "endpoint": "inhibition", "read by": "HPLC", "value": "69.8%"}
{"SMILES": "COc1ccc2c(O[C@@H]3C[C@@H](C(=O)NC4(C(=O)NS(=O)(=O)C5CC5)CC4)N(C(=O)[C@@H](NC(=O)OC(C)(C)C)C(C)C)C3)cc(-c3ccccc3)nc2c1", "strain": "BMS", "endpoint": "IC50", "value": "<0.05 µM"}
{"SMILES": "Cc1ccccc1NC(=O)c1c(O)cc(O)c([N+](=O)[O-])c1O", "dose": "100 µg/mL", "endpoint": "inhibition", "read by": "HPLC", "value": "77.8%"}
{"SMILES": "C=C[C@H]1C[C@@]1(NC(=O)[C@@H]1C[C@@H](Oc2cc(-c3ccccc3)nc3cc(OC)ccc23)CN1C(=O)[C@@H](NC(=O)OC(C)(C)C)C(C)(C)C)C(=O)NS(=O)(=O)C1([Si](C)(C)C)CC1", "strain": "BMS", "endpoint": "IC50", "value": "0.05–0.5 µM"}
{"SMILES": "C=CC1CC1(NC(=O)[C@@H]1C[C@@H](OC(=O)Nc2cccc(C(=O)OC)c2)CN1C(=O)[C@@H](NC(=O)OC(C)(C)C)C(C)(C)C)C(=O)NS(=O)(=O)C1CC1", "strain": "BMS/H77C/J416S", "endpoint": "IC50", "value": "<0.1 µM"}
{"SMILES": "C=C[C@H]1C[C@@]1(NC(=O)[C@@H]1C[C@@H](Oc2cc(-c3ccccc3)nc3cc(OC)ccc23)CN1C(=O)[C@@H](NC(=O)OC(C)(C)C)C(C)(C)C)C(=O)NS(=O)(=O)C1(Cc2ccccc2F)CC1", "strain": "BMS", "endpoint": "IC50", "value": "<0.05 µM"}
{"SMILES": "C=CC1CC1(NC(=O)[C@@H]1C[C@@H](OC(=O)Nc2cc(C)ccc2Cl)CN1C(=O)[C@@H](NC(=O)OC(C)(C)C)C(C)(C)C)C(=O)NS(=O)(=O)C1CC1", "strain": "BMS/H77C/J416S", "endpoint": "IC50", "value": "<0.1 µM"}
{"SMILES": "C=C[C@@H]1C[C@]1(NC(=O)[C@@H]1C[C@@H](Oc2cc(-c3ccccc3)nc3cc(OC)ccc23)CN1C(=O)[C@@H](NC(=O)OC(C)(C)C)C(C)(C)C)C(=O)NS(=O)(=O)c1cccc2ccccc12", "strain": "BMS", "endpoint": "IC50", "value": "<0.05 µM"}
{"SMILES": "C=CC1CC1(NC(=O)[C@@H]1C[C@@H](OC(=O)[n+]2cccc(C(C)=O)c2)CN1C(=O)[C@@H](NC(=O)OC(C)(C)C)C(C)(C)C)C(=O)NS(=O)(=O)C1CC1", "strain": "BMS/H77C/J416S", "endpoint": "IC50", "value": "0.1–1 µM"}
{"SMILES": "C=C[C@@H]1C[C@]1(NC(=O)[C@@H]1C[C@@H](Oc2cc(-c3ccccc3)nc3cc(OC)ccc23)CN1C(=O)[C@@H](NC(=O)OC(C)(C)C)C(C)(C)C)C(=O)NS(=O)(=O)CC", "strain": "BMS", "endpoint": "IC50", "value": "<0.05 µM"}

A second listing of 2 rows from above:

SMILES | strain | dose | endpoint | read by | value
C=CC1CC1(NC(=O)[C@@H]1C[C@@H](OC(=O)Nc2cc(C)ccc2Cl)CN1C(=O)[C@@H](NC(=O)OC(C)(C)C)C(C)(C)C)C(=O)NS(=O)(=O)C1CC1 | BMS/H77C/J416S |  | IC50 |  | <0.1 µM
C=C1C[C@]1(NC(=O)[C@@H]1C[C@@H](Oc2cc(-c3ccccc3)nc3cc(OC)ccc23)CN1C(=O)[C@@H](NC(=O)OC(C)(C)C)C(C)(C)C)C(=O)NS(=O)(=O)c1ccccc1F | BMS |  | IC50 |  | <0.05 µM

Inhibition is in % at the dose shown (toxicity tests: loss of growth or viability). Two numbers with a dash give a range or band. Blank or dashed fields: not listed here. ICn is the concentration giving n% inhibition.